Legend:
Human alphaherpesvirus 1 = assay: Antiviral activity was measured by plaque assay against HSV-1 virus by ELISA method
Human betaherpesvirus 5 = assay: Concentration required for 50% inhibition of HCMV replication was measured using a Plaque reduction assay

O=[N+]([O-])c1cc2nc(Cl)[nH]c2cc1[N+](=O)[O-]
IC50 (Human alphaherpesvirus 1): > 100 µM
IC50 (Human betaherpesvirus 5): 38 µM

— ChEMBL document CHEMBL1129961, “Design, synthesis, and antiviral evaluation of 2-chloro-5,6-dihalo-1-beta-D-ribofuranosylbenzimidazoles as potential agents for human cytomegalovirus infections” (J Med Chem, 1997)
